According to patent publication US20100166769:

Biological target: M-GFP fusion protein (SARS-CoV M protein fused with green fluorescent protein), SARS-CoV

For SARS-CoV E (envelope) protein, the result was “binds”.
